Results of unrelated studies side by side (data: NIAID ChemDB).

Shared fields: tests in culture; species: Human cytomegalovirus; read-out: EC50

Blank or dashed fields: not listed here. Conditions beyond the fields shown may differ between rows. ECn: concentration that inhibits the pathogen or its effect by n%.

structure	read by	strain or isolate	setting	cells	result
CC(C)(C)OC(=O)[C@H](Cc1ccccc1)NC(=O)Nc1ccc(-c2csc(N)n2)cc1	plaque count / crystal violet	AD169	-	HS68	>103 µM
Cc1cc(C)cc(Cn2c(=O)cc(Cl)n(Cc3ccccc3)c2=O)c1	-	AD169	-	-	96 µM
CO[C@H]1Cc2ccccc2[C@H]1Nc1nc(C)c([N+](=O)[O-])c(-n2ccnc2)n1	-	-	-	-	0.2 µM
Nc1ncnc2c1ncn2C[C@@H](CO)OCP(=O)(O)O	hybridisation	AD169	-	HEL	0.05 µM
Cc1nc(NC2Cc3ccccc3C2)nc(-n2ccnc2)c1[N+](=O)[O-]	-	-	-	-	2 µM
Cc1cc(C)cc(Cn2c(=S)ccn(Cc3ccncc3)c2=O)c1	-	AD169	-	-	>15 µM
Nc1nc(N)c2ncn(C=C3CC3CO)c2n1	plaque count	AD169	-	HFF	15.9 µM
CCCCCCCCCCCCCCCCOCCCOP(=O)(O)CO[C@H](CO)Cn1ccc(N)nc1=O	plaque count	Coffman	-	MRC-5	0.001 µM
Nc1nc2c(ncn2[C@H]2C=C[C@@H](CO)[C@H](O)C2)c(=O)[nH]1	-	DAVIS	-	-	3.97 µg/mL
O[C@@H]1[C@H](O)CO[C@H]1n1c(Cl)nc2cc(Cl)c(Cl)cc21	virus yield	TOWNE	-	HFF	<0.5 µM
Nc1nc2c(ncn2COC(CO)CO)c(=O)[nH]1	hybridisation	TOWNE	-	-	3.7 µM
COc1cccc(N2CCN(C3=Nc4c(F)cccc4[C@H](CC(=O)O)N3c3cc(C(F)(F)F)ccc3OC)CC2)c1	plaque count	Clinical isolate 5	-	-	0.002 µM
CC(C)Nc1nc2cc(Cl)c(Cl)cc2n1[C@H]1O[C@@H](CO)[C@H](O)[C@@H]1O	hybridisation	AD169	-	MRC-5	0.05 µM
CN(Cc1cnc2nc(N)nc(N)c2n1)c1ccc(C(=O)N[C@@H](CCC(=O)O)C(=O)O)cc1	hybridisation	TOWNE	72 h	MRC-5	0.05 µM
Cc1c(S(=O)(=O)c2ccc(Cl)cc2)c(NC(=O)C(F)(F)F)n(Cc2ccc(Cl)cc2)c1C	cytopathic effect	DAVIS	-	HEL	0.6 µg/mL
CCCC(C)Nc1ccc(Oc2ccc(O)cc2)cc1	virus yield	AD169	-	-	0.6 µM
Cc1nc(N2CCCC(C)C2)nc(-n2ccnc2)c1[N+](=O)[O-]	-	-	-	-	0.23 µM
Nc1nc2c(ncn2COCCO)c(=O)[nH]1	virus yield / luciferase	AD169	-	MRC-5	24 µM
Nc1nc(-c2ccc(NC(=O)CCN(C(=O)c3cccnc3)C3CCc4ccccc43)cc2)cs1	plaque count / crystal violet	AD169	-	HS68	8 µM
Cc1nc2ccccn2c1NC(=S)Nc1ccccc1	cytopathic effect	AD169	-	HEL	13 µg/mL
Cc1nc(NC2CCc3ccccc32)nc(-n2ccnc2C)c1[N+](=O)[O-]	-	-	-	-	0.02 µM
Nc1nc(NC2CC2)c2ncn(C=C3CC3CO)c2n1	plaque count	Coffman	-	HFF	3.1 µM
Cc1nc(N2CCOC[C@H]2C)nc(-n2ccnc2)c1[N+](=O)[O-]	-	-	-	-	0.11 µM
c1ccc(Oc2ccc(NC3CCCCCC3)cc2)cc1	virus yield	-	-	-	43.5 µM
CC(NC(=S)Nc1ccc(NC(=O)c2nccc3ccccc23)cc1)c1cc2ccccc2o1	ELISA	AD169	-	HFF	>10 µg/mL
CC(=O)OC(C(C)C(C)C(C)(C)O)C1OC12C(O)CC1C3CCC4CC(=O)CCC4C3CCC12CO	MTT	-	-	-	6 µg/mL
CC(Nc1ccc(Oc2ccc(O)cc2)cc1)C1CC1	virus yield	-	-	-	5.7 µM
Nc1nc2c(ncn2CC[C@@H](O)CO)c(=O)[nH]1	antigen	AD169	-	HEL	50 µM
CCOC(=O)/C=C\C=C\[C@H]1O[C@@H](n2ccc(=O)[nH]c2=O)[C@H](O)[C@@H]1O	-	AD169	-	HEL	10 µM
CC1=CCC/C=C/CC[C@@]2(C)O[C@@H]2C[C@H]2[C@@H](CC(=O)[C@@H]2C)[C@@H]1OC(C(=O)O)(c1ccccc1)C(F)(F)F	MTT	-	-	-	5.2 µg/mL
Nc1nc2c(ncn2CCCCO)c(=O)[nH]1	antigen	9 isolates	-	HEL	150 µM
CC(C)(C)c1nc2ccccn2c1NC(=O)Nc1ccccc1	cytopathic effect	DAVIS	-	HEL	32 µg/mL
Nc1ccn(C[C@@H](CO)OCP(=O)(O)O)c(=O)n1	plaque count	D-10 C4 (BDCRB-resistant)	-	HFF	0.11 µg/mL
Cc1cc(C)cc(Cn2c(SCc3ccccc3)nccc2=S)c1	-	AD169	-	-	4.5 µM
CO[C@@H]1CCN(c2nc(C)c([N+](=O)[O-])c(-n3ccnc3)n2)C1	-	-	-	-	0.28 µM
Cc1cc(C)cc(Cn2c(=S)ccn(Cc3ccc(C(C)(C)C)cc3)c2=O)c1	-	AD169	-	-	>120 µM
N#CC1C(c2ccc(Cl)cc2)Nc2c(ccn2Cc2ccccc2)S1(=O)=O	cytopathic effect	DAVIS	-	HEL	>5 µg/mL
Nc1nc2c(ncn2COC(CO)CO)c(=O)[nH]1	hybridisation	C8910	-	MRC-5	0.7 µM
OC[C@H]1O[C@@H](n2c(Br)nc3cc(Cl)c(Cl)cc32)[C@H](O)[C@@H]1O	virus yield	D10 (D341E)	-	-	<2 µM
Nc1nc2c(ncn2COC(CO)CO)c(=O)[nH]1	virus yield	TOWNE	-	HFF	<3.2 µM
CC(=O)Cn1ccc(=O)n(Cc2cc(C)cc(C)c2)c1=O	-	AD169	-	-	>570 µM
COC(=O)[C@H](C)NP(=O)(OC[C@H]1C/C1=C/n1cnc2c(N)nc(N)nc21)Oc1ccccc1	plaque count	AD169	-	HFF	7.8 µM
O=C(NCc1ccc(Cl)cc1)c1c[nH]c2c(F)cccc2c1=O	plaque count	GRU	-	-	4.9 µM
Nc1nc2c(ncn2COC(CO)CO)c(=O)[nH]1	ELISA	Isolate 1558	-	MRC-5	3.25 µM
CC(C)Nc1nc2cc(Cl)c(Cl)cc2n1[C@@H]1CO[C@H](CO)[C@H]1O	hybridisation	AD169	-	MRC-5	10 µM
CC(C)Nc1nc2cc(Cl)c(Cl)cc2n1[C@H]1O[C@@H](CO)[C@H](O)[C@@H]1O	hybridisation	C8302	-	MRC-5	0.1 µM
Nc1nc2c(ncn2C=C2CC2CO)c(=O)[nH]1	plaque count	VR4990 (ganciclovir-resistant)	-	-	1.5 µM
OC[C@H]1O[C@@H](n2c(Br)nc3cc(Cl)c(Cl)cc32)[C@H](O)[C@@H]1O	virus yield	TOWNE	-	HFF	<0.31 µM
Nc1nccc2c1ncn2C[C@@H](CO)OCP(=O)(O)O	flow cytometry	AD169	-	HEL	1.14 µM
Nc1nc(-c2ccc(NC(=O)CCN(Cc3ccccc3)C(=O)C3Cc4ccccc4C3)cc2)cs1	plaque count / crystal violet	AD169	-	HS68	20 µM
CN(C)c1cccc2c(S(=O)(=O)Nc3ccc(NC(=O)C(C)(C)CO)cc3)cccc12	virus yield	AD169	-	HFF	<0.7 µM
Cc1cc(C)cc(Cn2c(=O)cc(N3CCCCC3)n(CC#N)c2=O)c1	-	AD169	-	-	99 µM
N#CC1C(c2ccccc2)Nc2ccccc2S1(=O)=O	cytopathic effect	DAVIS	-	HEL	>20 µg/mL
Nc1nc2ncn(/C=C3/C(F)C3(CO)CO)c2c(=O)[nH]1	cytopathic effect	AD169	-	HFF	>300 µM
Nc1nc2c(ncn2COCCO)c(=O)[nH]1	plaque count / crystal violet	AD169	-	HEL	13.2 µg/mL
OC[C@H]1OC[C@@H](n2c(Br)nc3cc(Cl)c(Cl)cc32)[C@@H]1O	hybridisation	AD169	-	MRC-5	25 µM
N#CC1C(c2ccc(Cl)cc2)Nc2ccccc2S1(=O)=O	cytopathic effect	AD169 (PFA-resistant)	-	HEL	3.2 µg/mL
OC[C@H]1O[C@@H](n2c(Br)nc3cc(Cl)c(Cl)cc32)[C@H](O)[C@@H]1O	virus yield	TOWNE	-	HFF	<0.9 µM
OC[C@@H]1O[C@@H](n2c(Cl)nc3cc(Cl)c(Cl)cc32)[C@H](O)[C@@H]1O	virus yield	TOWNE	-	HFF	<9.2 µM
Nc1nc2c(ncn2C=C2CC2CO)c(=O)[nH]1	plaque count	EC	-	HFF	5.1 µM
C[C@H]1OC[C@@H](n2c(Br)nc3cc(Cl)c(Cl)cc32)[C@@H]1O	hybridisation	AD169	-	MRC-5	11 µM